Anti-infective test results gathered from many reports (values: NIAID ChemDB through PubChem).

Common to all: tests in culture; species: HIV-1

An empty or dashed field is not shown. Lines come from different laboratories, so protocols vary. ECn is the concentration giving n% inhibition of infection, replication or growth. Two numbers with a dash give a range or band.

SMILES | strain or isolate | setting | cell line | mutations | endpoint | read by | value
CCCCCOC(=S)Nc1ccc(Cl)c(C(=O)OC(C)C)c1 |  |  | CEM | RT-V106A | EC50 | syncytia | 29.08 µM
CCCCO[C@]12CS(=O)(=O)O[C@@]13C(CN2)O[C@@H](n1cc(C)c(=O)[nH]c1=O)[C@@H]3O[Si](C)(C)C(C)(C)C | IIIB |  | MT-4 |  | EC50 |  | >10 µM
S=C(Nc1nc2ccccc2s1)NC1CC2CCC1C2 | IIIB |  | MT-4 |  | EC50 | MTT | >46 µM
COC(=O)C(C)(C)NP(=O)(OC[C@@H]1OC[C@H](n2cc(C)c(=O)[nH]c2=O)O1)Oc1ccccc1 | LAI |  | PBMC | RT-M184V | EC90 | RT activity | 3.3 µM
S=C(Nc1nc2ccccc2s1)Nc1ccccc1Br | IIIB |  | MT-4 |  | EC50 | MTT | >1.6 µM
C=CCOc1cc(NC(=S)OC(C)C)ccc1C#N |  |  | CEM | RT-Y181C | EC50 | syncytia | 2.352 µM
COC(=O)[C@H](C)NP(=O)(OC[C@@H]1OC[C@H](n2cc(C)c(=O)[nH]c2=O)O1)Oc1ccc(F)cc1 | LAI |  | PBMC | RT-M184V | EC90 | RT activity | 7.3 µM
CC[C@@H](C)OC(=S)Nc1ccc(Cl)c(C(=O)OC(C)C)c1 |  |  | CEM | RT-Y181C | EC50 | syncytia | 1.819 µM
COC(=O)[C@H](C)NP(=O)(OC[C@@H]1OC[C@H](n2cc(C)c(=O)[nH]c2=O)O1)Oc1ccc(C#N)cc1 | LAI |  | PBMC | RT-M184V | EC50 | RT activity | 0.54 µM
Cc1ccc(C)n1-c1ccc(C(=O)O)c(O)c1 | BCF02 R5 GROUP O |  | PBMC/5.25M7 |  | EC90 | luciferase / cell fusion | 10.89 µM
Cc1cn([C@@H]2O[C@@H]3CN[C@@]4(C(N)=O)CS(=O)(=O)O[C@@]34[C@H]2O)c(=O)[nH]c1=O | IIIB |  | CEM |  | EC50 |  | >250 µM
Cc1cn([C@H]2C[C@H](N=[N+]=[N-])[C@@H](CO)O2)c(=O)[nH]c1=O | IIIB |  | MT-4 | MDR | EC50 | MTT | 0.08 µM
COC(=O)/C=C1\S/C(=N/N=C/c2ccc(OCc3ccccc3)cc2)NC1=O | IIIB |  | MT-4 |  | EC50 | cytopathic effect / MTT | >97.45 µM
CCO[C@]12CS(=O)(=O)O[C@@]13C(CN2)O[C@@H](n1cc(C)c(=O)[nH]c1=O)[C@@H]3O[Si](C)(C)C(C)(C)C | IIIB |  | MT-4 |  | EC50 |  | 13.8 µM
O=S(=O)(c1cccc2cnccc12)N1CCNCC1 | IIIB |  | MT-4 |  | EC50 | cytopathic effect / MTT | >14.8 µg/mL
CCC(CC)OC(=O)c1cc(NC(=S)OC(C)C)ccc1Cl |  |  | CEM | RT-Y181C | EC50 | syncytia | 11.63 µM
COC(=O)c1cc(O)c(O)c(=O)cc1C | RF |  | CEM-SS |  | EC50 | cytopathic effect / absorbance | 5.3 µM
C=CCSc1cc(NC(=S)OC(C)C)ccc1Cl |  |  | CEM | RT-Y181C | EC50 | syncytia | 14.34 µM
CCC1=C(c2nc(C3CCCCC3)cs2)C(Cc2ccccc2)NC(=O)N1 |  |  | CEM |  | EC50 | p24 / ELISA | >5 µM
Cn1c2ccccc2c(=O)c2c(O)cccc21 | IIIB |  | MOLT-4/IIIB + MOLT-4 |  | EC50 | p24 / ELISA | >2.07 µg/mL
Nc1ccn([C@@H]2CS[C@H](CO)O2)c(=O)n1 | RES056 |  | MT-4 |  | EC50 | MTT | 5 µM
Cc1ccnc2c1NC(=O)c1cccnc1N2C1CC1 | SF162 |  | TZM-bl |  | EC50 | luciferase / luminescence | 0.04152 µM
CC[C@H](C)OC(=S)Nc1ccc(Cl)c(C(=O)OC(C)C)c1 |  |  | CEM | RT-V106A | EC50 | syncytia | 1.213 µM
CC(C)CN(C[C@@H](O)[C@H](Cc1ccccc1)NC(=O)[C@H](C(C)C)N1CC(=O)N(Cc2ccncc2)C1=O)S(=O)(=O)c1ccc(/C=N/O)cc1 |  | 50% human serum | MT-4 |  | EC50 | cytopathic effect / MTT | 0.042 µM
CC1=C(C(=O)NCC2CCCCC2)C(c2cccc(O)c2)NC(=O)N1 |  |  | CEM |  | EC50 | p24 / ELISA | >5 µM
CC(C)Nc1cnccc1N1CCN(C(=O)c2cc3cc(F)ccc3[nH]2)CC1 |  |  | PBL |  | EC50 | p24 | 0.01–0.1 µM
COc1ccc(NC(=S)Nc2nc3ccccc3s2)cc1 | IIIB |  | MT-4 |  | EC50 | MTT | >68 µM
Cc1cn([C@@H]2O[C@@H]3CN[C@@]4(O)CS(=O)(=O)O[C@@]34[C@H]2O[Si](C)(C)C(C)(C)C)c(=O)[nH]c1=O | IIIB |  | CEM |  | EC50 |  | >250 µM
CCC(C)[C@@H](C(=O)N[C@@H](Cc1ccccc1)[C@H](O)CN(CC(C)C)S(=O)(=O)c1ccc(/C=N/O)cc1)N1CC(=O)N(Cc2cccnc2)C1=O |  |  | MT-4 |  | EC50 | cytopathic effect / MTT | 0.004 µM
CCN(CC)C(=S)SSC(=S)N(CC)CC | ADA |  | Macrophage + Monocytes/macrophages |  | EC50 | p24 | >100 µM
CCNc1cccnc1N1CCN(C(=O)c2cc3cc(C(=O)OCc4ccccc4)ccc3[nH]2)CC1 |  |  | PBL |  | EC50 | p24 | 0.1 µM
C/C(=C(/CCO)SS/C(CCO)=C(\C)N(C=O)Cc1cnc(C)nc1N)N(C=O)Cc1cnc(C)nc1N |  |  | CEM-SS |  | EC50 | p24 | >100 µM
Cn1c2ccccc2c(=O)c2ccccc21 | IIIB |  | OM-10.1 |  | EC50 | p24 / ELISA | 4.9 µg/mL
COC(=O)[C@H](C)NP(=O)(C[C@H]1O[C@@H](n2cc(C)c(=O)[nH]c2=O)C[C@@H]1N=[N+]=[N-])O[C@H]1C[C@H](n2cc(C)c(=O)[nH]c2=O)O[C@@H]1CO | IIIB |  | MT-4 |  | EC50 | cytopathic effect | 0.34 µg/mL
CC(C)OC(=O)c1cc(NC(=S)OCC2CC2)ccc1Cl |  |  | CEM | RT-V106A | EC50 | syncytia | 16.78 µM
COC(=O)[C@H](C)NP(=O)(OC[C@@H]1OC[C@H](n2cc(C)c(=O)[nH]c2=O)O1)Oc1ccc(Cl)cc1 | LAI |  | PBMC | RT-M184V | EC50 | RT activity | 0.18 µM
O=C1Nc2ccc(Cl)cc2[C@@](C#CC2CC2)(C(F)(F)F)[C@H]1OCc1cccc(F)c1 | RF |  | MT-2 |  | EC50 |  | <0.201 µM
CCC1=C(C(=O)OCC2CCCCC2)C(c2ccc(NCc3ccccc3)cc2)NC(=O)N1 |  |  | CEM |  | EC50 | p24 / ELISA | ≤1 µM
COC(=O)/C=C1\S/C(=N/N=C/c2cc(OC)c(O)c(OC)c2)NC1=O | IIIB |  | MT-4 |  | EC50 | cytopathic effect / MTT | >14.5 µM
CCC(C)[C@@H](C(=O)N[C@@H](Cc1ccccc1)[C@H](O)CN(CC(C)C)S(=O)(=O)c1ccc(/C=N/O)cc1)N1CCN(Cc2cccnc2)C1=O | A17 (LPV-resistant) |  | MT-4 | PR-L10F V32I M46I I47V Q68E I84V | EC50 | cytopathic effect / MTT | 0.008 µM
COC(=O)c1cc(NC(=S)OC(C)C)ccc1Cl |  |  | CEM | RT-E138K | EC50 | syncytia | 26.06 µM
CCC(C)[C@@H](C(=O)N[C@@H](Cc1ccccc1)[C@H](O)CN(CC(C)C)S(=O)(=O)c1ccc(/C=N/O)cc1)N1CCN(Cc2ccc(C)nc2)C1=O |  |  | MT-4 |  | EC50 | cytopathic effect / MTT | 0.002 µM
CC(C)OC(=S)Nc1ccc(Cl)c(COC(C)(C)C)c1 |  |  | CEM | RT-Y181C | EC50 | syncytia | >31.66 µM
CCC1=C(Cc2ccccc2)C(c2cccc(O)c2)NC(=O)N1 |  |  | CEM |  | EC50 | p24 / ELISA | >5 µM
COC(=O)/C=C1\S/C(=N/N=C/c2ccccc2Cl)NC1=O | IIIB |  | MT-4 |  | EC50 | cytopathic effect / MTT | >78.7 µM
C#CCOC(=O)c1cc(NC(=S)OC(C)C)ccc1Cl |  |  | CEM | RT-Y181C | EC50 | syncytia | ≥32.07 µM
COC(=O)/C=C1\S/C(=N/N=C/C2CCCCC2)NC1=O | IIIB |  | MT-4 |  | EC50 | cytopathic effect / MTT | >57.53 µM
Cc1cn([C@H]2CO[C@@H](COP(=O)(N[C@@H](C)C(=O)OCc3ccccc3)Oc3ccccc3Cl)O2)c(=O)[nH]c1=O | LAI |  | PBMC | RT-M184V | EC50 | RT activity | 0.57 µM
C=CCO[C@]12CS(=O)(=O)O[C@@]13[C@@H](CN2)O[C@@H](n1cc(C)c(=O)[nH]c1=O)[C@@H]3O[Si](C)(C)C(C)(C)C | IIIB |  | MT-4 |  | EC50 |  | >10 µM
CSC(=Nc1ccc(Cl)c(C(=O)OC(C)C)c1)OC(C)C |  |  | CEM | RT-V106A | EC50 | syncytia | >30.13 µM
C[C@@H]1CO[C@@]23CCCC[C@@H]2n2cc(C(=O)NCc4ccc(F)cc4F)c(=O)c(O)c2C(=O)N13 | IIIB |  | MT-4 |  | EC50 | luminescence | 0.002096 µM
COC(=O)/C=C1\S/C(=N/N=C/c2ccc(Cl)cc2)NC1=O | IIIB |  | MT-4 |  | EC50 | cytopathic effect / MTT | >4.23 µM
CC(C)OC(=S)Nc1ccc(Cl)c(C(=O)OCC2CC2)c1 | IIIB |  | CEM |  | EC50 | syncytia | 0.122 µM
CC(=O)N[C@H]1C(=O)Nc2ccc(Cl)cc2[C@@]1(C#CC1CC1)C(F)(F)F | RF |  | MT-2 |  | EC50 |  | <0.917 µM
COc1ccc(NC(=S)OC(C)C)cc1CC(=O)OC(C)C |  |  | CEM | RT-Y181C | EC50 | syncytia | 1.69 µM
O=C(NCc1ccc(F)c(Cl)c1F)c1cn2c(c(O)c1=O)C(=O)N1CCCO[C@]13C1CC1C[C@H]23 | IIIB |  | MT-4 |  | EC50 | luminescence | 0.003754 µM
CC(C)OC(=O)c1cc(NC(=S)N(C)C(C)C)ccc1Cl |  |  | CEM | RT-E138K | EC50 | syncytia | >30.32 µM
CCC1=C(C(=O)CC2CCCC2)[C@H](c2ccc(O)c(Cl)c2)NC(=O)N1 |  |  | CEM |  | EC50 | p24 / ELISA | >5 µM
OC[C@@H]1CC[C@H](n2cnc3cccnc32)O1 | RF |  | C8166 |  | EC50 | cytopathic effect / MTT / p24 | >1000 µM
C=CCOC(=S)Nc1ccc(Cl)c(C(=O)OC(C)C)c1 |  |  | CEM | RT-Y181C | EC50 | syncytia | 17.53 µM
Nc1ccccc1CO[C@H]1C(=O)Nc2ccc(Cl)cc2[C@@]1(C#CC1CC1)C(F)(F)F | RF |  | MT-2 |  | EC50 |  | <0.115 µM
COC(=O)c1c(C)cc(OC)c(O)c(=O)c1OC | RF |  | CEM-SS |  | EC50 | cytopathic effect / absorbance | >50 µM
CCCCCCNc1ncnc2c1ncn2[C@H]1CC[C@@H](CO)O1 | RF |  | C8166 |  | EC50 | cytopathic effect / MTT / p24 | <100 µM
Nc1cccc(CO[C@H]2C(=O)Nc3ccc(Cl)cc3[C@@]2(C#CC2CC2)C(F)(F)F)c1 | RF |  | MT-2 |  | EC50 |  | <0.138 µM
CC(=O)Oc1cccc(C2NC(=O)NC(C)=C2C(=O)OCC2CCCCC2)c1 |  |  | CEM |  | EC50 | p24 / ELISA | ≤1 µM
CCCCCCCC/C=C\CCCCCCCCOP(=O)(N[C@@H](C)C(=O)OC)OC[C@@H]1OC[C@H](n2cc(C)c(=O)[nH]c2=O)O1 | LAI |  | PBMC | RT-M184V | EC50 | RT activity | 4.9 µM
CCC1=C(C(=O)OCC2CCCCC2)C(c2cc(O)c(O)c(Br)c2Br)NC(=O)N1 |  |  | CEM |  | EC50 | p24 / ELISA | 1–5 µM
CCNc1ccccc1N1CCN(C(=O)c2cc3cc(OC)ccc3[nH]2)CC1 |  |  | MT-2 |  | EC50 | syncytia | >16 µM
Cc1cn([C@H]2CO[C@@H](CO[P@@]3(=O)OCC[C@@H](c4ccccc4)O3)O2)c(=O)[nH]c1=O | LAI |  | PBMC | RT-M184V | EC90 | RT activity | 10.1 µM
Cc1cn([C@H]2C[C@H](N=[N+]=[N-])[C@@H](CO)O2)c(=O)[nH]c1=O | IIIB |  | MT-4 | E138K | EC50 | MTT | 0.019 µM
C/C=C\COc1cc(NC(=S)OC(C)C)ccc1Cl |  |  | CEM | RT-L100I | EC50 | syncytia | 1.668 µM
C[C@@H]1CO[C@@]23CCCC[C@@H]2n2cc(C(=O)NCc4ccc(F)c(Cl)c4F)c(=O)c(O)c2C(=O)N13 | IIIB |  | MT-4 |  | EC50 | luminescence | 0.00207 µM
CC(C)OC(=S)Nc1ccc(Cl)c(C(=O)OC2(C)COC2)c1 |  |  | CEM | RT-E138K | EC50 | syncytia | 2.036 µM
CCCCCCCCCCCCCCCCCCOCCOP(=O)(N[C@@H](C)C(=O)OC)OC[C@@H]1OC[C@H](n2cc(C)c(=O)[nH]c2=O)O1 | LAI |  | PBMC | RT-M184V | EC90 | RT activity | 35.1 µM
Cc1cn([C@@H]2O[C@@H]3CN[C@@]4(OCCO)CS(=O)(=O)O[C@@]34[C@H]2O[Si](C)(C)C(C)(C)C)c(=O)[nH]c1=O | IIIB |  | CEM |  | EC50 |  | 11 µM
CSCCOC(=S)Nc1ccc(Cl)c(C(=O)OC(C)C)c1 |  |  | CEM | RT-E138K | EC50 | syncytia | 14.37 µM

A second listing of 6 rows from above:

SMILES,strain or isolate,setting,cell line,mutations,endpoint,read by,value
CC(=O)N[C@H]1C(=O)Nc2ccc(Cl)cc2[C@@]1(C#CC1CC1)C(F)(F)F,RF,,MT-2,,EC50,,<0.917 µM
CC(C)CN(C[C@@H](O)[C@H](Cc1ccccc1)NC(=O)[C@H](C(C)C)N1CC(=O)N(Cc2ccncc2)C1=O)S(=O)(=O)c1ccc(/C=N/O)cc1,,50% human serum,MT-4,,EC50,cytopathic effect / MTT,0.042 µM
CCCCCOC(=S)Nc1ccc(Cl)c(C(=O)OC(C)C)c1,,,CEM,RT-V106A,EC50,syncytia,29.08 µM
CCC(C)[C@@H](C(=O)N[C@@H](Cc1ccccc1)[C@H](O)CN(CC(C)C)S(=O)(=O)c1ccc(/C=N/O)cc1)N1CC(=O)N(Cc2cccnc2)C1=O,,,MT-4,,EC50,cytopathic effect / MTT,0.004 µM
COC(=O)C(C)(C)NP(=O)(OC[C@@H]1OC[C@H](n2cc(C)c(=O)[nH]c2=O)O1)Oc1ccccc1,LAI,,PBMC,RT-M184V,EC90,RT activity,3.3 µM
Cc1cn([C@H]2CO[C@@H](COP(=O)(N[C@@H](C)C(=O)OCc3ccccc3)Oc3ccccc3Cl)O2)c(=O)[nH]c1=O,LAI,,PBMC,RT-M184V,EC50,RT activity,0.57 µM